How the values were obtained:
[1] = Selectivity index, ratio of LD50 for cytotoxicity against human HepG2 cells to IC50 for antibacterial activity against Clostridium difficile ATTC43255 assessed as spore germination inhibition
[2] = Selectivity ratio of IC50 for inhibition of bacterial CspB to IC50 for antibacterial activity against Clostridium difficile ATTC43255 assessed as spore germination inhibition
[3] = Selectivity ratio of drug concentration in feces of ICR mouse at 30 mg/kg, po measured after 8 hrs to IC50 for antibacterial activity against Clostridium difficile ATTC43255 assessed as spore germination inhibition; conditions: in vivo

| SMILES | Ratio LD50/IC50 [1] | Ratio IC50 [2] | Ratio [3] |
| --- | --- | --- | --- |
| Oc1ccc(-c2nc(-c3ccc(OC4CCCC4)cc3)no2)cc1 | 0.9 |  |  |
| Cl.NCc1ccc(-c2nc(-c3ccnc(Oc4ccc(C(F)(F)F)cc4)c3)no2)cc1 | 9 | 2.4 | < 2 |

Source: ChEMBL document CHEMBL6134901 (J Med Chem, 2025)
